The values below come from patent publication US8216800B2, “Substrates for detecting peptidase activity and methods using the substrates” (Biomerieux, priority 2007, dated 2012).

Assay in all cases: Peptidase activity detection on Columbia agar containing substrate
Type in all cases: cell-based

Data set [1] relates to Enterobacter cloacae NCTC 11936. Conditions: substrate 100 mg/l, 24 hours at 37° C., UV 360-365 nm. Here is the method: (§1) 40 mg of each substrate are dissolved in 4 ml of dimethylformamide (DMF). This solution is completely taken up in 400 ml of Columbia agar autoclaved beforehand and kept molten at 50° C. The final concentration for each substrate is therefore 100 mg/l. Each of the media is distributed into 90 mm Petri dishes in a proportion of 20 ml per dish.
(§2) 18 microorganism strains derived from collections and belonging to various species of bacteria and of yeasts are inoculated onto these media by semi-quantitative isolation of 10 μl of a suspension at 0.5 McFarland diluted to 1/20. The media are incubated for 24 hours at 37° C., and then the colonies formed are examined visually under UV illumination at 360-365 nm.

In data set [2] the test system is Enterococcus faecalis NCTC 775. The conditions noted are these: substrate 100 mg/l, 24 hours at 37° C., UV 360-365 nm. Here is the method:
as §1, §2

For data set [3], the system named is Enterococcus faecium NCTC 11047. The conditions noted are these: Enterococcus faecium NCTC 11047 (Table 2); substrate 100 mg/l, 24 hours at 37° C., UV 360-365 nm. Here is the method:
as §1, §2

Data set [4] has as its system Escherichia coli NCTC 10418. Conditions: substrate 100 mg/l, 24 hours at 37° C., UV 360-365 nm. Here is the method:
as §1, §2

Data set [5] has as its system Listeria monocytogenes NCTC 11994. Conditions: substrate 100 mg/l, 24 hours at 37° C., UV 360-365 nm. Here is the method: as §1, §2
For data set [6], the system named is Providencia rettgeri NCTC 7475. Conditions: substrate 100 mg/l, 24 hours at 37° C., UV 360-365 nm. Here is the method:
as §1, §2

For data set [7], the system named is Pseudomonas aeruginosa NCTC 10662. The conditions noted are these: substrate 100 mg/l, 24 hours at 37° C., UV 360-365 nm. Here is the method:
as §1, §2

For data set [8], the system named is Salmonella Typhimurium NCTC 74. The conditions noted are these: substrate 100 mg/l, 24 hours at 37° C., UV 360-365 nm. Here is the method: as §1, §2
Data set [9] has as its system Staphylococcus aureus NCTC 11939. Conditions: substrate 100 mg/l, 24 hours at 37° C., UV 360-365 nm. Here is the method: as §1, §2
The test system of data set [10] is Staphylococcus aureus NCTC 6571. Conditions: substrate 100 mg/l, 24 hours at 37° C., UV 360-365 nm. Here is the method:
as §1, §2

Data set [11] deals with Yersinia enterocolitica NCTC 11176. Conditions: substrate 100 mg/l, 24 hours at 37° C., UV 360-365 nm. Here is the method:
as §1, §2

Data set [12] deals with Burkholderia cepacia 1222. The conditions noted are these: substrate 100 mg/l, 24 hours at 37° C., UV 360-365 nm. Here is the method: as §1, §2

Molecules are shown by their SMILES.

For the compound `C[C@H](N)C(=O)Nc1ccccc1-c1nc2ccccc2o1` [Substrate 1], the “color of the fluorescence” value is given as “blue” in data set [1]; “blue” in data set [2]; “blue” in data set [3]; “blue” in data set [4]; “green” in data set [5]; “blue” in data set [6]. In addition, the “color of the fluorescence” value is reported as “blue” in data set [7]; “blue” in data set [8]; “green” in data set [9]; “green” in [10]; “blue” in data set [11].

For `C[C@H](N)C(=O)Nc1ccc(Cl)cc1-c1nc2ccccc2s1` [Substrate 19], the “color of the fluorescence” value in data set [1], in [4], in data set [6] and in data set [8] was “blue” each time.

As to `C[C@H](N)C(=O)Nc1ccccc1-c1nc2ccccc2n1CCc1ccccc1` [Substrate 14], the “color of the fluorescence” value in data set [1] was “purple”.

Turning to `C[C@H](N)C(=O)Nc1cc2c(cc1-c1nc3ccccc3n1CCc1ccccc1)OCO2` [Substrate 16], the “color of the fluorescence” value in data set [12], in [1], in [4], in data set [6] and in [8] was “blue” in each case.

With `NCCC(=O)Nc1ccccc1-c1nc2ccccc2o1` [Substrate 2], the “color of the fluorescence” value in [12], in [1], in [2], in [3], in data set [4] and in data set [5] was “green” throughout. Besides, the “color of the fluorescence” value in data set [6], in data set [7] and in data set [11] was “green” in each case.

As for `NCC(=O)Nc1ccccc1-c1nc2ccccc2o1` [Substrate 3], the “color of the fluorescence” value is on record as “blue” in data set [12]; “blue” in [1]; “blue” in data set [4]; “green” in data set [5]; “blue” in data set [6]; “blue” in [7]. Besides, the “color of the fluorescence” value in data set [9] is “green”; in data set [10] it was “green”; in [11], “blue”.

As for `NCCC(=O)Nc1ccccc1-c1nc2ccccc2s1` [Substrate 18], the “color of the fluorescence” value in data set [4] and in data set [7] was “yellow” each time.

`COc1cc(NC(=O)CCN)c(-c2nc3ccccc3o2)cc1OC` [Substrate 11]: the “color of the fluorescence” value in [12], in data set [1], in data set [2], in [3], in data set [4] and in data set [5] was “blue” each time. Also, the “color of the fluorescence” value in data set [6], in data set [7], in data set [8], in data set [10] and in [11] was “blue” each time.

On to `C[C@H](N)C(=O)Nc1ccccc1-c1nc2ccccc2s1` [Substrate 17], for which the “color of the fluorescence” value is on record as “yellow” in data set [12]; “blue” in data set [1]; “blue” in [4]; “blue” in [6]; “yellow” in data set [7]; “yellow” in data set [11].

Consider `C[C@H](N)C(=O)Nc1ccccc1-c1nc2cc(Cl)ccc2o1` [Substrate 4], for which the “color of the fluorescence” value was “blue” in [1]; “blue” in [2]; “blue” in [6]; “violet” in [7]; “blue” in data set [11].
